# Target: hACE2-mRuby3 (human ACE2 fused at the C-terminus to mRuby3) on 293T-ACE2iRb3 cells (human)
substance,measurement,value
MERS-RBG (MERS-CoV RBD fused to mGamillus) (ligand),mean fluorescence signal (MFI) in the cytoplasm,< 1000 MFI

# From patent publication US20230174592A1
